These results are taken from US20070184519A1 (published 2007).

What all share (assay): competition with 125I probe, purified MHC II
The target of one assay is T1, HLA-DR DRB1*1302 (human).
T1 chain 1: not shown
T1 chain 2: not shown

The target in another assay is T2, HLA-DR DRB1*0404 (human).
T2 chain 1: not shown
T2 chain 2: not shown

In the next assay the target is T3, HLA-DR DRB1*0401 (human).
T3 chain 1: not shown
T3 chain 2: not shown

The target in a further assay is T4, HLA-DR DRB5*0101 (human).
T4 chain 1: not shown
T4 chain 2: not shown

In the next assay the target is T5, HLA-DR DRB1*1101 (human).
T5 chain 1: not shown
T5 chain 2: not shown

The target of another assay is T6, HLA-DR DRB1*0101 (human).
T6 chain 1: not shown
T6 chain 2: not shown

Another assay has as its target T7, HLA-DR DRB1*0802 (human).
T7 chain 1: not shown
T7 chain 2: not shown

The next assay addresses T8, HLA-DR DRB1*0901 (human).
T8 chain 1: not shown
T8 chain 2: not shown

Another assay has as its target T9, HLA-DR DRB4*0101 (human).
T9 chain 1: not shown
T9 chain 2: not shown

The next assay deals with T10, HLA-DR DRB3*0101 (human).
T10 chain 1: not shown
T10 chain 2: not shown

B1: HCV.NS3.1248 (peptide)
peptide: GYKVLVLNPSVAAT
modifications: not checked
Usually IC50 stands for the concentration that gives 50% inhibition. Low readings indicate inhibition by little substance, high ones a need for much substance. In the case of B1, the IC50 was found to be 8.6 nM in the assay with HLA-DR DRB1*1302 (human); 33 nM with HLA-DR DRB1*0404 (human); 7.5 nM with HLA-DR DRB1*0401 (human); 3.7 µM with HLA-DR DRB5*0101 (human); 75 nM with HLA-DR DRB1*1101 (human); 1.4 nM with HLA-DR DRB1*0101 (human). This molecule gave an IC50 in the assay with HLA-DR DRB1*0802 (human) of 63 nM.

B2: HBV Pre S1 21-47 (peptide)
peptide: PLGFFPDHQLDPAFGANSNNPDWDFNP
modifications: not checked
Consider B2, for which the IC50 in the assay with HLA-DR DRB1*0901 (human) came out at 15.7 µM; in the assay with HLA-DR DRB4*0101 (human), 3.14 µM; in the assay with HLA-DR DRB3*0101 (human), 311 nM.
